Experimental findings from patent US20250313596A1, “BACILLUS SUBTILIS STRAINS PRODUCING NEW MYCOSUBTILIN ISOFORMS” (Universite de Lille, priority 2022, published 2025) are described below.

In the data set the test system is Vero cells. The data set is classed as cell-based. The procedure:
The cytotoxicity test is performed using Vero cells and the CyQUANT™ XTT Cell Viability assay kit (supplied by Invitrogen™).
Samples are dissolved in 100% DMSO at a concentration of 20-50 g/L. The final concentration in DMEM medium is 40 μg/L. Cells were prepared in flasks containing DMEM cell culture medium with 10% FBS as follows:
A 175 ml flask containing 20-30 million cells with 25 ml medium and 2 ml trypsin was added. Then the medium was discarded as the cells were attached to the flask wall. Rinse twice with PBS, then trypsin was added to detach cells from the flask wall. The mixture was incubated for 5 min at 37° C. To inactivate trypsin, 6 ml […] was added to the medium (twice the volume of the original trypsin in the medium).
In a 50 ml flask, the medium was centrifuged for 5 min at 300 g. […]. The medium was discarded, and the cells were resuspended. 100 μL of cells were added to 100 μL of dye, then 12 μL was used for counting. The percentage of viability was compared with a control of cells without any treatment.
The test is performed in a 96-well plate. A range of concentrations (mg/l) 0.14; 0.28; 0.56; 1.16; 2.25; 4.5 is used to determine the toxicity limit of each isoform.

On to “conventional C17 isoform of mycosubtilin, ring Asn-Tyr-Asn-Gln-Pro-Ser-Asn (peaks 5, 6, 7; FIG. 1) (NYNQPSN; cyclic lipopeptide with C17 fatty chain; printed: Asn-Tyr-Asn-Gln-Pro-Ser-Asn) [A-C17]”, for which the “EC50 times less than the new isoforms of the same chain length” value was “at least 2 times”.
